Assay in all cases: BLI
Conditions in all cases: both partners purified

One test has as its target T1, fHbp m000019 (Neisseria meningitidis, fHbp v1.1 …, point mutant).
T1 chain: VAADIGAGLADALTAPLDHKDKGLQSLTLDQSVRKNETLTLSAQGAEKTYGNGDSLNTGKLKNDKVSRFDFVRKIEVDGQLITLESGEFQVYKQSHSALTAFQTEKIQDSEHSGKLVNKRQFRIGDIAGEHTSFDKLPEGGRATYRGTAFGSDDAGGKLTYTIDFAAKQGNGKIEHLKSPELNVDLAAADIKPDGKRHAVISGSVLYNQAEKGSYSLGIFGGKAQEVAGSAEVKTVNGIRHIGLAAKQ

In a further test the target is T2, fHbp mutant 0012 (Neisseria meningitidis, fHbp v1.1 mutant, point mutant).
T2 chain: T1 chain with T38K, T40K, S42A, K106Q, L116M, N118A

The target of another test is T3, fHbp mutant 0018 (Neisseria meningitidis, fHbp v1.1 mutant, point mutant).
T3 chain: T1 chain with L116M, N118A, A155P, G156N

In another test the target is T4, fHbp mutant 0014 (Neisseria meningitidis, fHbp v1.1 mutant, point mutant).
T4 chain: T1 chain with T38K, T40K, S42A, V72I, K74Q, K106Q, L116M, N118A, A155P, G156N

Another test concerns the target T5, fHbp mutant 0017 (Neisseria meningitidis, fHbp v1.1 mutant, point mutant).
T5 chain: T1 chain with K106Q, A155P, G156N

Where a chain is given by its changes, count along the chain named.

Broadly, the koff is the first-order rate constant of dissociation. Read a high koff as a short-lived complex. One may read the kon as a measure of how fast the partners come together. Lower therefore signals slow association.

B1: mAb JAR5 (mouse) (antibody, V domains shown)
VH: QVQMQQPGAELVKPGASVKLSCKASGYTFISYWMHWVKQRPGRGLEWIGRIAPDTGIIYYNEKFKNKATLTVDTPSSTAYMQLNSLTSEDSAVYYCARYLKYDGSTYRFDYWGQGTTLTVSS
VL: DIVMTQAAPSVPVTPGESVSISCRSSKSLLHSNGNTYLFWFLQRPGQSPQLLIYRMSNLASGVPDRFSGSGSGTSFTLRISRVEAEDVGVYYCMQHLEYPYTFGGGTKLEIK
notes: source: Expi293, purified (MabSelect SuRe, SEC); copies: 2 + 2
As for B1, the koff amounted to 0.000238 s⁻¹ with fHbp m000019, 0.000654 s⁻¹ in the test with fHbp mutant 0012, 0.000278 s⁻¹ in the test with fHbp mutant 0018 and 2e-05 s⁻¹ with fHbp mutant 0017. The results for the on-rate constant (kon) with fHbp mutant 0012 and in the test with fHbp mutant 0014 were 1.564e+06 ± 7740 M⁻¹ s⁻¹ and 1.322e+06 ± 6980 M⁻¹ s⁻¹, respectively.

The record behind these values is article PMC12319226 (Frontiers in Bioinformatics, 2025).
